Results of unrelated studies side by side (data: NIAID ChemDB).

Common to all: growth or infection tests; organism: HIV-1

Lines come from different laboratories, so protocols vary. Blank or dashed fields: not listed here. ECn: concentration that inhibits the pathogen or its effect by n%.

SMILES	changes	cell line	read by	read-out	strain	setting	result
CCC(C)Oc1cc(=O)[nH]c(Sc2cc(C)cc(C)c2)n1		MT-4	cytopathic effect / MTT	EC50	IIIB		35 µM
O=C1N(Cc2ccc(CO)cc2)[C@H](Cc2ccccc2)[C@H](O)[C@@H](O)[C@@H](Cc2ccccc2)N1Cc1ccc(CO)cc1	PR-L10R M46I L63P 184V	MT-4	p24	EC95	NL4-3		3 µM
C=C(C)[C@@H]1CC[C@]2(NCCN3C[C@H]4C[C@H]3CS4(=O)=O)CC[C@]3(C)[C@H](CC[C@@H]4[C@@]5(C)CC=C(C6=CC7C(C6)C7C(=O)O)C(C)(C)[C@@H]5CC[C@]43C)[C@@H]12		MT-2	luciferase	EC50	NL4-3		<0.1 µM
CCOCCCCCCCCCCC(=O)O		CEM	cytopathic effect / MTT	EC50			>40 µM
CCN1c2ncccc2N(C)C(=S)c2sc3cccnc3c21		C8166	cytopathic effect	EC50	IIIB		0.0025 µM
CC(C)CN1CCCCC1c1nc(C(=O)NCc2ccc(F)cc2)c(O)c(=O)[nH]1		MT-4	p24	EC95	IIIB	50% human serum	>10 µM
COc1cc(OC)nc(N2C(=O)CSC2c2c(Cl)cccc2Cl)n1		PBMC	p24 / ELISA	EC50	N119		2.65 µg/mL
Cc1cn([C@H]2C[C@H](N=[N+]=[N-])[C@@H](CO)O2)c(=O)[nH]c1=O		MT-2	p24	EC50	IIIB		0.008 µg/mL
O=C1N(Cc2ccccc2)c2cscc2S(=O)(=O)N1Cc1ccccc1	RT-Y181C	CEM	syncytia	EC50	IIIB		≥10 µM
CC1(Cn2cnc3c(N)nc(Cl)nc32)CC1CO				EC50			>100 µg/mL
CC(C)Nc1cccnc1N1CCN(C(=O)c2cc3cc(NS(C)(=O)=O)ccc3[nH]2)CC1	RT-K103N Y181C	PBMC		EC50	A17		>100 µM
COc1cccc(CSc2nc(N)cc(Cl)n2)c1		MT-4	p24	EC50	RT-WT		<0.27 µM
O=c1[nH]c2ccc(Cl)cc2n1Cc1c(F)cccc1F	RT-Y181C	CEM	cytopathic effect	EC50			>20 µM
Cc1cn([C@H]2C[C@H](N=[N+]=[N-])[C@@H](CO)O2)c(=O)[nH]c1=O		PBMC	cytopathic effect / XTT	EC50	ROJO (syncytium-inducing)		0.01 µM
CC1(Cn2cnc3c(=O)[nH]c(N)nc32)CC1CO				EC50			>100 µg/mL
Nc1nc2c(ncn2CC(OCCF)OCP(=O)(O)O)c(=O)[nH]1		CEM	cytopathic effect	EC50			33.3 µg/mL
Cc1c(Sc2ccccc2)n(COCCO)c(=O)[nH]c1=O		PB macrophages (day 21) + Macrophage	p24	EC50	BaL		8.8 µM
CC(C)CN(C[C@@H](O)[C@H](Cc1ccccc1)NC(=O)O[C@H]1CCOC1)S(=O)(=O)c1ccc(N)cc1		MT-4		EC50			0.032 µM
CC(C)Nc1cccnc1N1CCN(C(=O)c2cc3cc(NS(C)(=O)=O)ccc3[nH]2)CC1	RT-K100I	MT-4	cytopathic effect / MTT	EC50			2.5 µM
Cc1cn([C@H]2C[C@H](N=[N+]=[N-])[C@@H](CO)O2)c(=O)[nH]c1=O		CEM	syncytia	EC50	IIIB		0.015 µM
CC1CN=C2c3ccccc3SC(=N)N2C1		MT-4	MTT	EC50	IIIB		1 µM
CCCCCCCCCCCC(=O)NCC(COP(=O)([O-])OCC[N+](C)(C)C)OCCCCCC		CEM	syncytia	EC50	IIIB		0.21 µM
C/C(CO)=C(/Br)Cn1ccc(=O)[nH]c1=O		MT-4		EC50			3.36 µg/mL
Cc1ccc(Cl)cc1-n1nnnc1SCC(=O)Nc1ccccc1[N+](=O)[O-]		MT-4	p24	EC50		50% human serum	<0.25 µM
COc1cc(OC)nc(N2C(=O)CSC2c2c(Cl)cccc2[N+](=O)[O-])n1		PBMC	p24 / ELISA	EC50	VB51		0.003 µg/mL
Nc1ncnc2c1ncn2CCOCP(=O)(O)O		MT-4	trypan blue	EC50			7 µM
CN[C@@H]1[C@H](O[C@@H]2OC[C@@H](O)[C@H](O)[C@H]2O)[C@@H](O)[C@H](O[C@H]2c3cc(C)c(C(=O)N[C@H](C)C(=O)O)c(O)c3-c3c(cc4c(c3O)C(=O)c3cc(OC)cc(O)c3C4=O)[C@@H]2O)O[C@@H]1C		PBMC	p24	EC50	ID12 R5 CLADE E		3.4 µg/mL
CN1CCN(C)C(c2nc(C(=O)NCc3ccc(F)cc3)c(O)c(=O)[nH]2)C1		MT-4	p24	EC50	IIIB	10% FBS	<0.12 µM
N=C1Sc2cc(Br)ccc2C2=NCC3(CCCCC3)CN12		MT-4	MTT	EC50	IIIB		2.3 µM
CC(C)(C)NC(=O)[C@@H]1C[C@@H]2CCCC[C@@H]2CN1C[C@@H](O)[C@H](Cc1ccccc1)NC(=O)[C@H](CC(N)=O)NC(=O)c1ccc2ccccc2n1		MT-4	p24	EC50	PR-WT		<0.025 µM
Cc1cn([C@H]2C[C@H](N=[N+]=[N-])[C@@H](CO)O2)c(=O)[nH]c1=O		CEM + CEM-SS	cytopathic effect / XTT	EC50	McK		0.0006 µM
O=c1[nH]cnc2c1ncn2[C@H]1CC[C@@H](CO)O1	RT-M41L L74V V106A T215Y	C8166	p24	EC50	HXB2		6.5 µM
CC(C)(C)OC(=O)N[C@@H](Cc1ccccc1)[C@H](O)CNC[C@@H](O)[C@H](Cc1ccc(OCC(=O)N2CCOCC2)cc1)NC(=O)OC(C)(C)C		PBMC	p24	EC50	IIIB		0.02 µM
CCCCCOCCCCCCCC(=O)O		CEM	cytopathic effect / MTT	EC50			>40 µM
CCN1c2ncc(CCc3ccc(OCP(=O)(O)O)cc3)cc2C(=O)N(C)c2cccnc21				EC50			>5 µM
Cc1cc(SC2=C(O)C[C@@](CCc3ccc(N)cc3)(C(C)C)OC2=O)c(C(C)(C)C)cc1CO		CEM		EC50			0.2 µM
CCN1c2cc(C)c(C)cc2N(C)S(=O)(=O)c2cccnc21		C8166	cytopathic effect	EC50	MN		0.06 µM
C[C@H](Cn1cnc2c(N)ncnc21)OCP(=O)(O)O	RT-K65R	PBMC	p24	EC50			6.37 µM
CNC(C)(C)c1nc(C(=O)NCc2ccc(F)cc2)c(O)c(=O)[nH]1		MT-4	p24	EC50	IIIB	50% human serum	<1 µM
N#CCN1C(=O)N(Cc2ccccc2)c2cscc2S1(=O)=O		MT-4	cytopathic effect / MTT	EC50	IIIB		>291 µM
Cc1cn([C@H]2C[C@H](N=[N+]=[N-])[C@@H](CO)O2)c(=O)[nH]c1=O		H9	RT activity	EC90	LAV		0.3 µM
CCCCCCCCCC(=O)NCC(COP(=O)([O-])OCC[N+](C)(C)C)OCCCCCC		CEM	syncytia	EC50	IIIB		1.5 µM
CN1CCCC1c1nc(C(=O)NCc2ccc(F)cc2)c(O)c(=O)[nH]1		MT-4	p24	EC50	IIIB	50% human serum	<0.62 µM
CN1C(=O)N(Cc2ccccc2)S(=O)(=O)c2cscc21	RT-L100I	CEM	syncytia	EC50	IIIB		12.9 µM
S=C(NCCC1=CCCCC1)Nc1ccc(Cl)cn1	RT-V106A	PBMC		EC50	RT-MDR(RT-V106A)		0.001 µM
CC(C)OC(=O)OCOP(=O)(CO[C@H](C)Cn1cnc2c(N)ncnc21)OCOC(=O)OC(C)C		PBMC	XTT / p24	EC50	IIIB	7 d	0.005 µM
Cc1cn([C@H]2C[C@H](N=[N+]=[N-])[C@@H](CO)O2)c(=O)[nH]c1=O			p24	EC50	CC10 Clinical isolates		0.01 µM
Cc1cn([C@H]2C[C@H](N=[N+]=[N-])[C@@H](COP(=O)(Oc3cccnc3)Oc3cccnc3)O2)c(=O)[nH]c1=O		MT-4	MTT	EC50	IIIB		0.02 µM
S=C(NCCC1=CCCCC1)Nc1ccc(Br)cn1		PBMC		EC50	IIIB		0.003 µM
Nc1cc(Cl)nc(S(=O)(=O)c2ccccc2)n1		MT-4	cytopathic effect / MTT	EC50	IIIB		>6 µM
Nc1nc(NC2CC2)c2ncn([C@H]3C=C[C@@H](CO)C3)c2n1	RT-M41L D67N K70R M184V H208Y T215Y K219E	PBMC	p24	EC50	MDR (RT M41L D67N K70R M184V H208Y T215Y K219E) DRSM34		45.34 µM
CCN1c2ncccc2N(C)C(=S)c2oc3cccnc3c21		C8166	cytopathic effect	EC50	IIIB		0.006 µM
C/C(CO)=C(/Br)Cn1cc(I)c(=O)[nH]c1=O		MT-4		EC50			>100 µg/mL
Nc1ccn([C@@H]2CO[C@H](CO)S2)c(=O)n1		C8166	p24	EC50	RF		5.5 µM
CCOCn1c(Cc2ccccc2)c(C(C)C)c(=O)[nH]c1=O	RT-L100I	CEM	cytopathic effect	EC50	A-0 (RT-L100I)		0.0028 µg/mL
Cc1cc(C)c(-n2nnnc2SCC(=O)Nc2ccc(S(N)(=O)=O)cc2C)c(C)c1		MT-4	p24	EC50		50% human serum	<0.58 µM
Nc1nc(N)c2ncn(C[C@@H](CO)OCP(=O)(O)O)c2n1		C3	RT activity	EC50	LAV		2.3 µM
CC[C@H]1C(=O)Nc2ccc(F)cc2N1C(=O)OC(C)C	RT-V106A	CEM	cytopathic effect	EC50	E-2 (RT-V106A)		0.01 µg/mL
NS(=O)(=O)c1ccc(NC(=O)CSc2nnnn2-c2cccc(Cl)c2Cl)c(Cl)c1		MT-4	p24	EC50		10% FBS	<0.062 µM
CCC(C)Oc1cc(=O)[nH]c(Sc2ccc(OC)cc2)n1		MT-4	cytopathic effect / MTT	EC50	IIIB		>300 µM
[Li+]		PBL	p24	EC50	GUN1		>1000 µg/mL
Cc1cn([C@H]2C[C@H](N=[N+]=[N-])[C@@H](CO)O2)c(=O)[nH]c1=O		MT-4		EC50			0.0005 µg/mL
N=C1Sc2cc(Br)ccc2C2=NCCCN12		MT-4	MTT	EC50	IIIB		2.9 µM
Nc1cc(Cl)nc(SC/C=C/c2ccccc2)n1		MT-4	p24	EC50	RT-WT		<0.15 µM
CCCCCCCCCCCC(=O)NCC(COP(=O)(O)OC[C@H]1O[C@@H](n2cc(C)c(=O)[nH]c2=O)C[C@@H]1N=[N+]=[N-])OCCCCCCCC		CEM	syncytia	EC50	IIIB		<0.08 µM
Cc1ccnc2c1NC(=O)c1cccnc1N2C1CC1	RT-L100I	CEM	syncytia	EC50	IIIB		0.07 µM
O=C(NCc1ccc(F)cc1)c1nc(C2CCCCN2)[nH]c(=O)c1O		MT-4	p24	EC50	IIIB	50% human serum	<5.83 µM
N#CCN1C(=O)N(Cc2ccccc2)S(=O)(=O)c2cscc21	RT-Y188H	CEM	syncytia	EC50	IIIB		≥60 µM
Cc1cc(C)c(-n2nnnc2SCC(=O)Nc2c(Cl)cccc2Cl)c(C)c1		MT-4	p24	EC95		50% human serum	>5 µM
CCC(C)Oc1cc(=O)[nH]c(Sc2ccccc2OC)n1		MT-4	cytopathic effect / MTT	EC50	IIIB		65 µM
Cc1ccnc2c1NC(=O)c1cccnc1N2C1CC1	RT-L100I	CEM	cytopathic effect	EC50	A-0 (RT-L100I)		0.019 µg/mL
O=C(CSc1nnnn1-c1cc(Cl)ccc1Cl)Nc1ccccc1[N+](=O)[O-]		MT-4	p24	EC95		10% FBS	0.078 µM
O=C1Nc2cscc2S(=O)(=O)N1c1ccc(Cl)cc1		CEM	syncytia	EC50	IIIB		>12.7 µM
CCCCCCCCCCOCCC(=O)O		CEM	cytopathic effect / MTT	EC50			18 µM
CCCCCCCCCC(=O)NCC(COP(=O)([O-])OCC[N+](C)(C)C)OCCCCCCCC		CEM	syncytia	EC50	IIIB		0.77 µM
CC(C)CN(C[C@@H](O)[C@H](Cc1ccccc1)NC(=O)[C@H](CC(N)=O)NC(=O)c1ccc2ccccc2n1)C(=O)NC(C)(C)C	PR-L63P	MT-4	p24	EC50	NL4-3		<0.2 µM
CN(C)C(=O)/C=C/CSc1nc(N)cc(Cl)n1		MT-4	p24	EC50	RT-WT		<0.09 µM
Cc1ccnc2c1NC(=O)c1cccnc1N2C1CC1	RT-K103N Y181C	PBMC		EC50	A17		>100 µM
N=C1Sc2ccc(-c3ccccc3)cc2C2=NCCCN12		MT-4	MTT	EC50	IIIB		2.2 µM
Cc1cc(=O)c2ccc(N=C=S)cc2o1		CEM-GFP	p24 / ELISA	EC50	NL4-3		0.155 µM
NCCCCN(Cc1nc2ccccc2[nH]1)C1CCCc2cccnc21		MAGI		EC50			0.0015 µM
O=C(O)/C=C/c1ccc[c]([Sb](=[O])([OH])[OH])c1		MAGI	β-galactosidase	EC50	92US727 R5 clinical isolate		<10 µM
C#CCN1C(=O)N(Cc2ccccc2)S(=O)(=O)c2cscc21	RT-Y181C	CEM	syncytia	EC50	IIIB		36.1 µM
Nc1nc2c(ncn2[C@H]2CO[C@@H](CO)O2)c(=O)[nH]1		MT-4		EC50	IIIB		0.05 µM
S=C(NCCC1=CCCCC1)Nc1ccc(Cl)cn1		PBMC	RT activity	EC50	IIIB		0.003 µM
CC(C)[C@@H]1CC[C@]2(NC(=O)CN3C[C@@H]4C[C@@H]3CN4Cc3ccccc3)CC[C@]3(C)[C@H](CC[C@@H]4[C@@]5(C)CC=C(c6ccc(C(=O)O)cc6)C(C)(C)[C@@H]5CC[C@]43C)[C@@H]12		MT-2	luciferase	EC50	NL4-3		<0.1 µM
CCCCCCCCCCCC(=O)NCC(COP(=O)([O-])OCC[N+](C)(C)C)OCCCCCCCCCC		CEM	syncytia	EC50	IIIB		0.15 µM
CCCCCCCOCCCCCC(=O)O		CEM	cytopathic effect / MTT	EC50			<40 µM
S=C(NCCc1ccccc1Cl)Nc1ccc(Br)cn1		PBMC	RT activity	EC50	IIIB		<0.001 µM

For reference, 4 entries again:

SMILES,changes,cell line,read by,read-out,strain,setting,result
CC(C)CN(C[C@@H](O)[C@H](Cc1ccccc1)NC(=O)O[C@H]1CCOC1)S(=O)(=O)c1ccc(N)cc1,,MT-4,,EC50,,,0.032 µM
CN1CCCC1c1nc(C(=O)NCc2ccc(F)cc2)c(O)c(=O)[nH]1,,MT-4,p24,EC50,IIIB,50% human serum,<0.62 µM
CCCCCCCCCCCC(=O)NCC(COP(=O)([O-])OCC[N+](C)(C)C)OCCCCCCCCCC,,CEM,syncytia,EC50,IIIB,,0.15 µM
CC[C@H]1C(=O)Nc2ccc(F)cc2N1C(=O)OC(C)C,RT-V106A,CEM,cytopathic effect,EC50,E-2 (RT-V106A),,0.01 µg/mL